# Data as given in patent US8212038B2, “Methods and compositions for controlling ectoparasites” (HatchTech Pty Ltd., priority 2003, dated 2012).
# Tested on: lice eggs
# Assay: Time course in vitro lice egg hatching assay
# Assay type: in vivo, Pediculus humanus humanus
# Settings: 5%; results not shown
smiles,measurement,value
OCCN(CCO)CCO,effect on egg hatching (in words),did not appear to have an effect on egg hatching
